Results taken from article PMC6957213.
Tags and fusion partners may be left off the protein sequences shown.

System: T1, GdhR (Neisseria gonorrhoeae FA19)
T1 sequence (looked up): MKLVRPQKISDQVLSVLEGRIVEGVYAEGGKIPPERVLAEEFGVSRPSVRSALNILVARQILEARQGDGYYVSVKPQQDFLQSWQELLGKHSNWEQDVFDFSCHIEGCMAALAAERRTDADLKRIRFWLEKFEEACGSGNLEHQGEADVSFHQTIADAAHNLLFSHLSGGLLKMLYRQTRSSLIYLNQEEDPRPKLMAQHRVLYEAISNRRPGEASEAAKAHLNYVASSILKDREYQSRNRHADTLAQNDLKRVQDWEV
Assay: DNase I footprinting
Details: 0.4-6.0 ug GdhR, protects +6 to +48; recombinant protein; residues 1-259; label: 5' 6-FAM (coding strand), 5' HEX (template strand); probe letters rebuilt from the primers and the genome

“GTGGACGGGGACGGCGCGGTATTCGTGCCGCCGGAAGAATGCTGAAAATGCCGTCTGAAGCCTTTCGGGCGGCTTTTTCTACACGCCCCTTTCCCACACTCCCTCCGCCGCATCATCACCATCCTTAACCCGCATTAATAGCCATTATCGATAAAATGCTTGACCGATTACATAAGATTACGTAAAGTGTGCAAACGCATAATAATTGGTCTTACCAATTTATCTTTTAACCAAAATATCGGGTGTGCGGGATTTGAACGTCTTTCCAAACCTCGACGCGCCTTATGATGCAAATGCCTAAAAAGGATTCGTTATGGCACTTTTCCTCAGCATATTCCCCATCGTCCTGCTGATTTGGCTGATGGTGAAAAAAAACAGTATGCCTTCCTACGTCGCACTGCCGATTACCGCAGTGCTGATTTACGCCATCAAACTTTTCTACTTCGGCGATGCGGGAATGCTGCTCAACGCCACCGCCGCTTCCGGCCTCGTCAAAACGCTCACGCCGATTACCGTGATTTTCGGCGCGATTATGTTCAACCGTATGATGGAAACCACGGGCTGCATCGATGT (double strand) [lctP promoter footprint probe]”: binds.
